Structures are written as SMILES.

The series relates to N. elongata. Briefly: Bacterial intracellular boron content by ICP-MS. The format is cell-based, Neisseria elongata.

As to `[Na+].c1ccc([B-](c2ccccc2)(c2ccccc2)c2ccccc2)cc1` [Compound 1, Sodium tetraphenylborate], the “boron uptake relative to respective control” value (5 μM in agar media, ICP-MS) is on record as “less than 2 fold”. For the same molecule, under “100 μM of NaBPh4 vs 100 μM NaBF4”, the “boron levels relative to NaBF4” value is 61 fold.

These data come from US12421264B2 (INSTITUT NATIONAL DE LA RECHERCHE SCIENTIFIQUE, priority 2018, dated 2025).
